Measurements reported in PubChem BioAssay AID1259414 (Drosophila RNAi Screening Center, 2018).
The deposit covers about 24,000 reagents; this is a random part of those that have a named target and a result. Over the whole deposit, about 1,210 (5%) got an active call. 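Inactive calls also include excluded dsRNAs with several or no targets, genes unexpressed in JW18, and well A1, regardless of score.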 Reagents against one gene are numbered here. No sequences are given here.

- Screen: 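Host factors increasing or decreasing Wolbachia levels in cultured fly cells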 (primary screen)
- Cell system: Drosophila JW18 cells infected with Wolbachia
- Reagent: long dsRNA against Drosophila genes, 0.25 µg dsRNA per well of a 384-well plate
- Duration: 5 days
- Treatment: cells persistently infected with Wolbachia before knock-down; no added drug
- Measurement: 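Automated imaging of bacterial rRNA staining divided by host cell count, reported as plate-normalised robust z-score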
- Direction: Wolbachia per cell robust z: higher = more Wolbachia per host cell than the plate typical
- Rule for the call: 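Active if absolute robust z reaches 1.5 in two or more of three replicates, leaving out multi- or no-target dsRNAs, genes unexpressed in JW18 and A1 wells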

Ubc10 (Ubiquitin conjugating enzyme 10) #1 → Wolbachia per cell robust z, rep 1 = 0.134; Wolbachia per cell robust z, rep 2 = -4.3; Wolbachia per cell robust z, rep 3 = -0.366; activity call = inactive
Ubc10 (Ubiquitin conjugating enzyme 10) #2 → Wolbachia per cell robust z, rep 1 = -0.493; Wolbachia per cell robust z, rep 2 = 2.25; Wolbachia per cell robust z, rep 3 = 1.19; activity call = inactive
Mst87F (Male-specific RNA 87F) #1 → Wolbachia per cell robust z, rep 1 = -5.48; Wolbachia per cell robust z, rep 2 = -1.08; Wolbachia per cell robust z, rep 3 = -0.638; activity call = inactive
Mst87F (Male-specific RNA 87F) #2 → Wolbachia per cell robust z, rep 1 = -1.25; Wolbachia per cell robust z, rep 2 = -1.48; Wolbachia per cell robust z, rep 3 = 0.858; activity call = inactive
Orc4 (Origin recognition complex subunit 4) #1 → Wolbachia per cell robust z, rep 1 = -5.3; Wolbachia per cell robust z, rep 2 = -0.722; Wolbachia per cell robust z, rep 3 = -0.408; activity call = inactive
Orc4 (Origin recognition complex subunit 4) #2 → Wolbachia per cell robust z, rep 1 = -0.229; Wolbachia per cell robust z, rep 2 = 0.443; Wolbachia per cell robust z, rep 3 = -0.2; activity call = inactive
Orc4 (Origin recognition complex subunit 4) #3 → Wolbachia per cell robust z, rep 1 = -1.41; Wolbachia per cell robust z, rep 2 = -0.11; Wolbachia per cell robust z, rep 3 = -2.6; activity call = inactive
SCCRO (Squamous cell carcinoma-related oncogene) #1 → Wolbachia per cell robust z, rep 1 = -2.18; Wolbachia per cell robust z, rep 2 = -2.53; Wolbachia per cell robust z, rep 3 = -0.852; activity call = active
SCCRO (Squamous cell carcinoma-related oncogene) #2 → Wolbachia per cell robust z, rep 1 = 0.223; Wolbachia per cell robust z, rep 2 = 1.16; Wolbachia per cell robust z, rep 3 = 0.354; activity call = inactive
CG17270 → Wolbachia per cell robust z, rep 1 = 1.2; Wolbachia per cell robust z, rep 2 = -0.214; Wolbachia per cell robust z, rep 3 = -1.98; activity call = inactive
RpS28b (Ribosomal protein S28b) #1 → Wolbachia per cell robust z, rep 1 = 1.05; Wolbachia per cell robust z, rep 2 = 1.03; Wolbachia per cell robust z, rep 3 = 9.1; activity call = inactive
RpS28b (Ribosomal protein S28b) #2 → Wolbachia per cell robust z, rep 1 = 1.96; Wolbachia per cell robust z, rep 2 = -4.65; Wolbachia per cell robust z, rep 3 = 2.36; activity call = active

2 entries from above, set out differently.
target gene | reagent no. | Wolbachia per cell robust z, rep 1 | Wolbachia per cell robust z, rep 2 | Wolbachia per cell robust z, rep 3 | activity call
Mst87F (Male-specific RNA 87F) | 2 | -1.25 | -1.48 | 0.858 | inactive
Orc4 (Origin recognition complex subunit 4) | 1 | -5.3 | -0.722 | -0.408 | inactive
